Laboratory results taken from paper PMC8445433, “Broadly directed SARS-CoV-2-specific CD4+ T cell response includes frequently detected peptide specificities within the membrane and nucleoprotein in patients with acute and resolved COVID-19” (PLoS Pathogens, 2021).

What was measured:
Experiment in all cases: biochemical
DQA1*03:01 DQB1*03:02 = DQA1*03:01 DQB1*03:02 (Homo sapiens, UniProt P01909+P01920, A209T/A45G/C70Q/D89A/DUP78-78/E183D/E77G/F237L/G63E/H199R/I129T/K197E/L178F/L74F/L98V/Q57E/Q76R/S185I/S97I/T217I/T49S/V73L/Y58L); assay type: binding; settings: read-out: IC50 DQA1*03:01 DQB1*03:02
DQA1*01:02 DQB1*06:02 = DQA1*01:02 DQB1*06:02 (Homo sapiens, UniProt P01909+P01920, A157G/A45G/C70R/E118A/E183D/E77G/F83G/G63E/H151Q/H199R/H252R/H253Q/I129T/I235V/I88M/INS77G/K197Q/L117V/L119F/L178F/L71W/L74F/L85Q/L91A/L98M/N214S/P87R/Q116E/Q76K/R102G/R240Q/R75S/R78G/S102Y/S185I/S41F/S97I/T121G/T122I/T172A/T86R/V229M/V68A/V73E/Y34C/Y41F/Y58L); assay type: binding; settings: read-out: IC50 DQA1*01:02 DQB1*06:02
DQA1*01:01 DQB1*05:01 = DQA1*01:01 DQB1*05:01 (Homo sapiens, UniProt P01909+P01920, A157S/A45G/A70V/C70R/D89V/E106S/E118A/E183D/E77G/F83G/G63E/H151Q/H199R/H252R/H253Q/I129T/I235V/I88M/INS77G/K197Q/L107V/L117V/L119Y/L178F/L71W/L74F/L85Q/L91A/L98M/M46L/N214S/P87R/Q116E/Q256R/Q57E/Q76K/R102G/R240Q/R75S/R78G/S102Y/S185I/S41F/S97I/T103A/T109R/T121G/T122I/T172A/T86R/V148I/V68A/V73E/Y34C/Y58G/Y62H); assay type: binding; settings: read-out: IC50 DQA1*01:01 DQB1*05:01
DQA1*05:01 DQB1*02:01 = DQA1*05:01 DQB1*02:01 (Homo sapiens, UniProt P01909+P01920, A45G/A70V/D89A/E106A/E77G/E98D/H199R/L107V/N214S/P84L/P87L/T103K/T109R/T172A/T60S/V78E/V99I/Y58L/Y62S/Y69I/Y79F)

CC(C)C[C@H](NC(=O)[C@H](CCC(N)=O)NC(=O)[C@H](CC(N)=O)NC(=O)[C@H](CC(C)C)NC(=O)[C@H](CCCNC(=N)N)NC(=O)[C@H](CC(=O)O)NC(=O)[C@H](CC(C)C)NC(=O)[C@H](CC(C)C)NC(=O)[C@H](CC(C)C)NC(=O)[C@H](CC(C)C)NC(=O)[C@H](C)NC(=O)[C@H](CC(C)C)NC(=O)[C@H](C)NC(=O)[C@H](C)NC(=O)[C@@H](N)CC(=O)O)C(=O)O [Ncl_44]
IC50 (DQA1*03:01 DQB1*03:02): 0.86 µM
IC50 (DQA1*01:02 DQB1*06:02): 2.5 µM
IC50 (DQA1*01:01 DQB1*05:01): 8.46 µM
IC50 (DQA1*05:01 DQB1*02:01): 2.49 µM

CC[C@H](C)[C@H](NC(=O)CNC(=O)[C@H](CC(=O)O)NC(=O)[C@H](CCCCN)NC(=O)[C@@H](N)CC(N)=O)C(=O)N[C@H](C(=O)N[C@@H](Cc1c[nH]c2ccccc12)C(=O)N[C@H](C(=O)N[C@@H](C)C(=O)N[C@H](C(=O)N[C@@H](CCC(=O)O)C(=O)NCC(=O)N[C@@H](C)C(=O)N[C@@H](CC(C)C)C(=O)N[C@@H](CC(N)=O)C(=O)O)[C@@H](C)O)C(C)C)[C@@H](C)CC [Ncl_26]
IC50 (DQA1*03:01 DQB1*03:02): 0.103 µM
IC50 (DQA1*01:02 DQB1*06:02): 2.64 µM
IC50 (DQA1*01:01 DQB1*05:01): > 40 µM
IC50 (DQA1*05:01 DQB1*02:01): 0.422 µM

CC[C@H](C)[C@H](NC(=O)[C@H](CCC(N)=O)NC(=O)[C@H](CC(=O)O)NC(=O)[C@@H](N)CC(=O)O)C(=O)NCC(=O)N[C@@H](Cc1ccc(O)cc1)C(=O)N[C@@H](Cc1ccc(O)cc1)C(=O)N[C@@H](CCCNC(=N)N)C(=O)N[C@@H](CCCNC(=N)N)C(=O)N[C@@H](C)C(=O)N[C@H](C(=O)N[C@@H](CCCNC(=N)N)C(=O)N[C@@H](CCCNC(=N)N)C(=O)N[C@H](C(=O)N[C@@H](CCCNC(=N)N)C(=O)O)[C@@H](C)CC)[C@@H](C)O [Ncl_P17]
IC50 (DQA1*03:01 DQB1*03:02): > 40 µM
IC50 (DQA1*01:02 DQB1*06:02): > 40 µM
IC50 (DQA1*01:01 DQB1*05:01): > 40 µM
IC50 (DQA1*05:01 DQB1*02:01): > 40 µM

CC(C)C[C@H](NC(=O)[C@H](CC(N)=O)NC(=O)[C@H](CCCCN)NC(=O)[C@@H](NC(=O)[C@H](CCCNC(=N)N)NC(=O)[C@H](CO)NC(=O)[C@H](Cc1ccc(O)cc1)NC(=O)[C@@H](NC(=O)[C@H](Cc1ccc(O)cc1)NC(=O)[C@H](Cc1ccccc1)NC(=O)[C@H](CO)NC(=O)[C@@H]1CCCN1C(=O)[C@H](CCCCN)NC(=O)[C@@H](NC(=O)[C@@H](N)CC(C)C)C(C)C)C(C)C)C(C)C)C(=O)O [Env_11]
IC50 (DQA1*03:01 DQB1*03:02): > 40 µM
IC50 (DQA1*01:02 DQB1*06:02): 24.4 µM
IC50 (DQA1*01:01 DQB1*05:01): > 40 µM
IC50 (DQA1*05:01 DQB1*02:01): > 40 µM

CC(C)C[C@H](NC(=O)[C@H](Cc1ccc(O)cc1)NC(=O)[C@H](Cc1ccc(O)cc1)NC(=O)[C@H](Cc1ccccc1)NC(=O)[C@H](Cc1ccc(O)cc1)NC(=O)[C@H](Cc1c[nH]c2ccccc12)NC(=O)[C@H](CCCNC(=N)N)NC(=O)[C@@H]1CCCN1)C(=O)NCC(=O)N[C@H](C(=O)NCC(=O)N1CCC[C@H]1C(=O)N[C@@H](CCC(=O)O)C(=O)N[C@@H](C)C(=O)NCC(=O)O)[C@@H](C)O [Ncl_22]
IC50 (DQA1*03:01 DQB1*03:02): 0.414 µM
IC50 (DQA1*01:02 DQB1*06:02): 7.88 µM
IC50 (DQA1*01:01 DQB1*05:01): 2.24 µM
IC50 (DQA1*05:01 DQB1*02:01): 0.079 µM

CC[C@H](C)[C@H](NC(=O)[C@H](CCC(=O)O)NC(=O)[C@@H](N)CCCCN)C(=O)N[C@H](C(=O)N[C@H](C(=O)N[C@@H](C)C(=O)N[C@H](C(=O)N[C@@H](CO)C(=O)N[C@@H](CCCNC(=N)N)C(=O)N[C@H](C(=O)N[C@@H](CC(C)C)C(=O)N[C@@H](CO)C(=O)N[C@@H](Cc1ccc(O)cc1)C(=O)N[C@@H](Cc1ccc(O)cc1)C(=O)N[C@@H](CCCCN)C(=O)O)[C@@H](C)O)[C@@H](C)O)C(C)C)[C@@H](C)O [Mem_34]
IC50 (DQA1*03:01 DQB1*03:02): 17.4 µM
IC50 (DQA1*01:02 DQB1*06:02): 1.83 µM
IC50 (DQA1*01:01 DQB1*05:01): > 40 µM
IC50 (DQA1*05:01 DQB1*02:01): 13.6 µM

CC[C@H](C)[C@H](NC(=O)[C@H](CCCNC(=N)N)NC(=O)[C@H](CC(C)C)NC(=O)[C@H](Cc1c[nH]cn1)NC(=O)CNC(=O)[C@@H](N)CCCNC(=N)N)C(=O)N[C@@H](C)C(=O)NCC(=O)N[C@@H](Cc1c[nH]cn1)C(=O)N[C@@H](Cc1c[nH]cn1)C(=O)N[C@@H](CC(C)C)C(=O)NCC(=O)N[C@@H](CCCNC(=N)N)C(=O)N[C@@H](CS)C(=O)N[C@@H](CC(=O)O)C(=O)O [Mem_30]
IC50 (DQA1*03:01 DQB1*03:02): > 40 µM
IC50 (DQA1*01:02 DQB1*06:02): > 40 µM
IC50 (DQA1*01:01 DQB1*05:01): 37.7 µM
IC50 (DQA1*05:01 DQB1*02:01): > 40 µM
